# Share of PSTVd loop 15 variants by leaf site

Reference: Wu et al. 2024, doi:10.1371/journal.ppat.1012142.

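A pool of all variants was put on leaves of three Nicotiana benthamiana plants. Progeny were sequenced from the inoculated region (day 5), the margin of the inoculated leaf (day 10) and systemic leaves (day 12).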

Region: loop 15 of PSTVd (intermediate strain), upper and lower strand joined, each 5' to 3', the first 7 letters being the upper strand, closing pairs included. Wild type: GGAAACCGCUACUAC. Varied positions (N): GGAAACCGNNNNNNC.

Numbers give reads per thousand; 0 = not seen among the reads, higher = more abundant. Each site shows the three plants. "Pool" is the share in the plasmid pool used as inoculum, on the same scale. The inoculated region was read from the minus strand, the other sites from the plus strand. Sequences that differ at fixed positions probably stem from PCR or sequencing errors, and defective variants can be carried along by functional ones. Wild type was 33.9 per thousand in the pool and the most common sequence in every sample (inoculated region 202, 200, 159; leaf margin 724, 746, 710; systemic leaves 856, 883, 880). Samples held 43,870 to 66,106 reads, so the smallest values rest on one or two reads.

| sequence | pool | inoculated region | leaf margin | systemic leaves |
|---|---|---|---|---|
| GGAAACCGAAAACUC | 0.192 | 0.147 / 0.0803 / 0.114 | 0.0162 / 0 / 0.0200 | 0 / 0 / 0 |
| GGAAACCGACAUUAC | 0.160 | 0.541 / 0.482 / 1.28 | 0.129 / 0.0445 / 0.220 | 0.0483 / 0.0303 / 0.114 |
| GGAAACCGACGUCGC | 0.288 | 0.0655 / 0.0643 / 0.114 | 0.0162 / 0 / 0 | 0 / 0 / 0 |
| GGAAACCGACUAACC | 0.176 | 0.115 / 0.0803 / 0.152 | 0 / 0 / 0.0200 | 0 / 0 / 0 |
| GGAAACCGAGAGAUC | 0.144 | 0.360 / 0.450 / 0.514 | 0.178 / 0.178 / 0.100 | 0.0322 / 0.0605 / 0.114 |
| GGAAACCGAGCAUUC | 0.288 | 0.328 / 0.418 / 0.190 | 0.0162 / 0 / 0.0200 | 0.0161 / 0 / 0 |
| GGAAACCGAGCGAAC | 0.256 | 0.262 / 0.273 / 0.533 | 0.0485 / 0.111 / 0.140 | 0.0322 / 0 / 0 |
| GGAAACCGAGGCACC | 0.304 | 0.0983 / 0.0803 / 0.152 | 0 / 0 / 0 | 0 / 0 / 0 |
| GGAAACCGAGGUAUC | 0.192 | 0.475 / 0.450 / 0.248 | 0.0323 / 0 / 0 | 0.0161 / 0 / 0 |
| GGAAACCGAGUUGUC | 0.240 | 0.131 / 0.129 / 0.114 | 0.0162 / 0.0223 / 0 | 0 / 0 / 0 |
| GGAAACCGAUCCUUC | 0.304 | 0.426 / 0.626 / 0.609 | 0.0647 / 0.0891 / 0.100 | 0.0644 / 0.0605 / 0.114 |
| GGAAACCGAUCGGGC | 0.256 | 0.0655 / 0.0964 / 0.0762 | 0 / 0.0223 / 0.0401 | 0 / 0 / 0 |
| GGAAACCGAUUCAUC | 0.224 | 0.115 / 0.112 / 0.0190 | 0 / 0 / 0 | 0 / 0 / 0 |
| GGAAACCGCACCACC | 0.256 | 0.0983 / 0.177 / 0.114 | 0.0162 / 0.0223 / 0.0200 | 0.0161 / 0 / 0 |
| GGAAACCGCAGUAUC | 0.208 | 0.229 / 0.193 / 0.286 | 0 / 0 / 0 | 0 / 0 / 0 |
| GGAAACCGCAUGAUC | 0.192 | 0.262 / 0.161 / 0.209 | 0.0162 / 0.0445 / 0 | 0 / 0 / 0 |
| GGAAACCGCCAAGCC | 0.112 | 0.0819 / 0.0964 / 0 | 0.0162 / 0 / 0 | 0.0161 / 0 / 0 |
| GGAAACCGCCAGACC | 0.128 | 0.131 / 0.112 / 0.114 | 0 / 0 / 0.0200 | 0 / 0 / 0 |
| GGAAACCGCGCACGC | 0.224 | 0.115 / 0.177 / 0.0762 | 0 / 0 / 0.0401 | 0 / 0 / 0 |
| GGAAACCGCGGGACC | 0.272 | 0.0655 / 0.129 / 0.0952 | 0.0162 / 0 / 0.0200 | 0 / 0 / 0 |
| GGAAACCGCUGUACC | 0.192 | 0.0983 / 0.0803 / 0.171 | 0 / 0.0223 / 0 | 0 / 0 / 0 |
| GGAAACCGCUUAACC | 0.128 | 0.147 / 0.129 / 0.0762 | 0 / 0 / 0 | 0 / 0 / 0 |
| GGAAACCGGAAAGCC | 0.256 | 0.0983 / 0.0482 / 0.114 | 0.0162 / 0 / 0.0200 | 0 / 0 / 0 |
| GGAAACCGGACGGGC | 0.176 | 0.0983 / 0.0803 / 0.0571 | 0.0162 / 0 / 0.0200 | 0.0161 / 0 / 0 |
| GGAAACCGGCAAGCC | 0.160 | 0.0819 / 0.0964 / 0.0952 | 0 / 0 / 0.0200 | 0.0161 / 0 / 0 |
| GGAAACCGGCCAUAC | 0.128 | 0.409 / 0.386 / 0.438 | 0.129 / 0.134 / 0.220 | 0.0322 / 0.0605 / 0.0684 |
| GGAAACCGGCUAUCC | 0.176 | 0.180 / 0.0643 / 0.133 | 0 / 0 / 0 | 0 / 0 / 0 |
| GGAAACCGGGAUCAC | 0.272 | 0.131 / 0.112 / 0.0571 | 0 / 0.0223 / 0.0200 | 0 / 0 / 0 |
| GGAAACCGGGGAAUC | 0.240 | 0.115 / 0.112 / 0.0571 | 0 / 0 / 0.0200 | 0 / 0 / 0 |
| GGAAACCGGGUCCAC | 0.192 | 0.115 / 0.0643 / 0.0762 | 0 / 0.0445 / 0 | 0 / 0 / 0 |
| GGAAACCGGGUCGCC | 0.224 | 0.131 / 0.0321 / 0.0190 | 0 / 0 / 0 | 0 / 0 / 0 |
| GGAAACCGGUUUCUC | 0.320 | 0.0655 / 0.0803 / 0.0952 | 0.0162 / 0 / 0 | 0 / 0 / 0 |
| GGAAACCGUAAGCCC | 0.272 | 0.0819 / 0.161 / 0.0762 | 0 / 0.0668 / 0.0401 | 0 / 0 / 0 |
| GGAAACCGUAAUGAC | 0.208 | 0.0819 / 0.112 / 0.0952 | 0 / 0 / 0 | 0 / 0 / 0 |
| GGAAACCGUAUAAGC | 0.208 | 0.0655 / 0.0803 / 0.171 | 0 / 0 / 0 | 0 / 0 / 0 |
| GGAAACCGUAUUGCC | 0.208 | 0.147 / 0.161 / 0.0190 | 0 / 0 / 0 | 0.0161 / 0 / 0 |
| GGAAACCGUCCAUUC | 0.192 | 0.409 / 0.273 / 0.647 | 0.129 / 0.134 / 0.0801 | 0.0966 / 0 / 0 |
| GGAAACCGUCCUCCC | 0.240 | 0.115 / 0.209 / 0.0381 | 0 / 0.0445 / 0 | 0.0322 / 0 / 0 |
| GGAAACCGUCUAUAC | 0.240 | 0.311 / 0.289 / 0.343 | 0.178 / 0.0668 / 0.200 | 0.0322 / 0.0908 / 0.0228 |
| GGAAACCGUGCCGGC | 0.256 | 0.131 / 0.0643 / 0.0190 | 0 / 0.0445 / 0.0200 | 0 / 0 / 0 |
| GGAAACCGUGCGUCC | 0.240 | 0.377 / 0.305 / 0.248 | 0.113 / 0.0891 / 0.140 | 0.0161 / 0 / 0 |
| GGAAACCGUGUGCGC | 0.144 | 0.115 / 0.145 / 0.0952 | 0 / 0 / 0 | 0 / 0 / 0 |
| GGAAACCGUUGGAAC | 0.192 | 0.213 / 0.273 / 0.267 | 0.194 / 0.178 / 0.140 | 0.0966 / 0.0908 / 0.160 |

Extract of 3 entries:

| sequence | pool | inoculated region | leaf margin | systemic leaves |
|---|---|---|---|---|
| GGAAACCGGACGGGC | 0.176 | 0.0983 / 0.0803 / 0.0571 | 0.0162 / 0 / 0.0200 | 0.0161 / 0 / 0 |
| GGAAACCGACGUCGC | 0.288 | 0.0655 / 0.0643 / 0.114 | 0.0162 / 0 / 0 | 0 / 0 / 0 |
| GGAAACCGUAUUGCC | 0.208 | 0.147 / 0.161 / 0.0190 | 0 / 0 / 0 | 0.0161 / 0 / 0 |